Measurements: patent publication US20190046536A1, “Combination Therapy” (Eli Lilly and Company, priority 2016, published 2019)

B1: Antibody I: anti-N3pGlu Abeta antibody with LC of SEQ ID NO: 12 and HC of SEQ ID NO: 11 (antibody)
heavy: QVQLVQSGAEVKKPGSSVKVSCKASGYTFTDYYINWVRQAPGQGLEWMGWINPGSGNTKYNEKFKGRVTITADESTSTAYMELSSLRSEDTAVYYCTREGETVYWGQGTLVTVSSASTKGPSVFPLAPSSKSTSGGTAALGCLVKDYFPEPVTVSWNSGALTSGVHTFPAVLQSSGLYSLSSVVTVPSSSLGTQTYICNVNHKPSNTKVDKKV[letters of human IgG1 Fc left out]
light: DVVMTQSPLSLPVTLGQPASISCKSSQSLLYSRGKTYLNWFQQRPGQSPRRLIYDVSKLDSGVPDRFSGSGSGTDFTLKISRVEAEDVGVYYCVQGTHYPFTFGQGTKLEIKRTVAAPSVFIFPPSDEQLKSGTASVVCLLNNFYPREAKVQWKVDNALQSGNSQESVTEQDSKDSTYSLSSTLTLSKADYEKHKVYACEVTHQGLSSPVTKSFNRGEC
B2: Antibody II: anti-N3pGlu Abeta antibody with LC of SEQ ID NO: 13 and HC of SEQ ID NO: 11 (antibody)
heavy: B1 heavy
light: DIQMTQSPSTLSASVGDRVTITCKSSQSLLYSRGKTYLNWLQQKPGKAPKLLIYAVSKLDSGVPSRFSGSGSGTEFTLTISSLQPDDFATYYCVQGTHYPFTFGQGTKLEIKRTVAAPSVFIFPPSDEQLKSGTASVVCLLNNFYPREAKVQWKVDNALQSGNSQESVTEQDSKDSTYSLSSTLTLSKADYEKHKVYACEVTHQGLSSPVTKSFNRGEC

Target: T1, Aβ […] peptide (Homo sapiens)
T1 construct: Aβ 1-40 peptide
Test: Binding affinity and kinetics by surface plasmon resonance (BIACORE 3000)
Settings: 25° C., HBS-EP buffer pH 7.4
Method: The binding affinity and kinetics of an anti-[…] […] The binding affinity is measured by capturing the anti-[…] AP antibody via immobilized protein A on a BIACORE® CMS chip, and flowing pE3-42 Aβ peptide or Aβ 1-40 peptide, starting from 100 nM in 2-fold serial dilution down to 3.125 nM. The experiments are carried out at 25° C. in HBS-EP buffer (GE Healthcare BR100669; 10 mM HEPES, 150 mM NaCl, 3 mM EDTA, 0.05% surfactant P20, pH 7.4). For each cycle, the antibody is captured with 5 μL injection of antibody solution at a 10 μg/mL concentration with 10 μL/min flow rate. The peptide is bound with 250 μL injection at 50 μL/min, and then dissociated for 10 minutes. The chip surface is regenerated with 5 μL injection of glycine buffer at pH 1.5 at 10 μL/mL flow rate. The data is fit to a 1:1 Langmiur binding model to derive kon, koff, and to calculate KD.

Row | Molecule | binding to Aβ 1-40
1 | B1 | No appreciable binding
2 | B2 | No appreciable binding
